Anti-infective test results gathered from many reports (values: NIAID ChemDB through PubChem).

All rows: whole-cell or culture tests; species: HIV-1

An empty or dashed field is not shown.

smiles	mutations	setting	endpoint	cells	strain	read by	result
Nc1ncnc2c1ncn2C/C=N/OCP(=O)(O)O			EC50	MT-4	899A	absorbance	57 µM
CCO[C@H]1C[C@H](n2cc(C)c(=O)[nH]c2=O)O[C@@H]1CO			EC50	C8166	RF	p24 / ELISA	100 µM
Nc1ncnc2c1ncn2[C@H]1CC[C@@](F)(/C=C/P(=O)(O)O)C1			EC50	PBMC	LAI	RT activity	51 µM
CC(C)N1CN2C(=O)N(C)Cc3c(-c4cnn(Cc5ccc(F)cc5F)c4)c(=O)c(O)c(n32)C1=O			EC50	MT4-GFP	NL4-3	fluorescence	0.0746 µM
COc1ccccc1CNC(=O)c1ccn(Cc2ccc(Cl)cc2)n1			EC50	MT-4	NL4-3	cytopathic effect	2 µM
CC1=CCCC2C1(C)CCC(C)[C@@]2(C)Cc1cc(=O)c2nc3[nH]cnc4ncn(c2c1=O)c43			EC90	C8166	IIIB	syncytia	>28.2 µM
CC(C)=CCN1Cc2cc(Cl)cc3[nH]c(=S)n(c23)C[C@@H]1C	RT-K70R Y181C		EC50	MT-4			<3 µM
Nc1ncnc2c1ncn2[C@H]1CC[C@@](F)(CCP(=O)(O)O)C1			EC50	PBMC	LAI	RT activity	47.9 µM
CC1=CCCC2C1(C)CCC(C)[C@@]2(C)CC1=CC(=O)C(NC(C)C(=O)O)=CC1=O			EC90	C8166	IIIB	syncytia	>5.7 µM
CCn1nc(Cc2ccc(C(F)(F)F)cc2)cc1C1CCN(C[C@H]2CN([C@@H](C(=O)O)C(C)C)C[C@@H]2c2cccc(F)c2)CC1			EC50	HeLa	BaL	β-galactosidase	<0.0037 µM
Cc1cc(O)cc(S(=O)(=O)c2cccc(N)c2C#N)c1			EC50	MT-4	IIIB	cytopathic effect	0.09 µM
CC[C@@H](C)[C@H](C(=O)O)N1C[C@H](CN2CCC(c3cc(Cc4ccc(S(=O)(=O)c5ccccc5)cc4)nn3CC)CC2)[C@@H](c2cccc(F)c2)C1			EC90	HeLa	BaL	β-galactosidase	0.0004 µM
CC(C)c1cc(=O)oc2c3c(c4c(c12)OC(C)(C)C=C4)O[C@@H](C)[C@H](C)[C@@H]3N=[N+]=[N-]			EC50	CEM + CEM-SS	RF		1.6 µM
Cc1cn([C@H]2C[C@H](N=[N+]=[N-])[C@@H](CO)O2)c(=O)[nH]c1=O			EC50	C8166	IIIB	syncytia	0.0108 µM
Cc1cn([C@H]2C[C@H](CO)[C@@H](O)C2)c(=O)[nH]c1=O			EC50	CEM + CEM/0			3.83 µM
Cc1cn([C@H]2C[C@H](N=[N+]=[N-])[C@@H](CO)O2)c(=O)[nH]c1=O			EC50	MT-4	IIIB	p24	0.0097 µM
Nc1nc2c(ncn2C/C=N/OCP(=O)(O)O)c(=O)[nH]1			EC50	MT-4	899A	absorbance	85 µM
C=CCC1(CC=C(C)C)C=C2OCOC2=CC1=O			EC50	C8166	IIIB	syncytia	46.8 µM
Cc1cn([C@H]2C[C@H](N=[N+]=[N-])[C@@H](CO)O2)c(=O)[nH]c1=O			EC50	MT-2	RF	p24 / ELISA	0.04 µM
CC(C)c1cc(=O)oc2c3c(c4c(c12)OC(C)(C)C=C4)C[C@@H](C)[C@H](C)[C@@H]3O			EC50	CEM + CEM-SS	RF		0.2 µM
CC1=CCC[C@H]2[C@](C)(CC3=CC(=O)C=CC3=O)[C@@H](C)CC[C@]12C			EC90	C8166	IIIB	syncytia	1.5 µM
COCCN1CN2C(=O)OCc3c(-c4cnn(Cc5ccc(F)cc5F)c4)c(=O)c(O)c(n32)C1=O			EC50	MT4-GFP	NL4-3	fluorescence	0.195 µM
CC[C@H](C)[C@H](C(=O)O)N1C[C@H](CN2CCC(c3cc(Cc4ccc(OC)c(OC)c4)nn3CC)CC2)[C@@H](c2cccc(F)c2)C1			EC50	PBMC	BaL	p24	<0.0055 µM
CC(C)=CCOc1c2occc2cc2ccc(=O)oc12			EC50	PBMC	NL4-3 Recombinant VSV-pseudotyped	luciferase	<25 µM
COC(=O)N[C@H](C(=O)N[C@@H](Cc1ccccc1)[C@@H](O)CN(Cc1ccc(-c2ccccn2)cc1)NC(=O)[C@@H](NC(=O)OC)C(C)(C)C)C(C)(C)C			EC50	MT-2	ROD	MTT	0.0076 µM
CC[C@H](C)[C@H](C(=O)O)N1C[C@H](CN2CCC(c3cc(Cc4ccc(O)cc4)nn3CC)CC2)[C@@H](c2cccc(F)c2)C1			EC90	HeLa	BaL	β-galactosidase	0.0004 µM
CC1=CCCC2C1(C)CCC(C)[C@@]2(C)CC1=CC(=O)C(NC(Cc2ccccc2)C(=O)O)=CC1=O			EC90	C8166	IIIB	syncytia	>8 µM
CCn1nc(Cc2cc(C(F)(F)F)cc(C(F)(F)F)c2)cc1C1CCN(C[C@H]2CN([C@@H](C(=O)O)C(C)(C)C)C[C@@H]2c2cccc(F)c2)CC1			EC50	HeLa	BaL	β-galactosidase	<0.011 µM
Cc1cn([C@H]2C=C[C@@H](CO)O2)c(=O)[nH]c1=O			EC50	CEM + CEM/0			0.37 µM
COCCN1CN2CC(OC)c3c(C(=O)NCc4ccc(F)cc4F)c(=O)c(O)c(n32)C1=O			EC50	MT4-GFP	NL4-3	fluorescence	0.0047 µM
Cc1cn([C@@H]2CC[C@H](O)[C@H]2CO)c(=O)[nH]c1=O			EC50	CEM + CEM/0			190 µM
CC(C)c1cc(=O)oc2c3c(c4c(c12)OC(C)(C)C=C4)O[C@@H](C)[C@H](C)C3=O			EC50	CEM + CEM-SS	IIIB		1 µM
CCCc1cc(=O)oc2c3c(c4c(c12)OC(C)(C)C=C4)O[C@@H](C)[C@H](C)[C@H]3O	Pyridinone- and TIBO-resistant		EC50	MT-2	A17	cytopathic effect / MTT	>1 µg/mL
COC(=O)[C@H](Cc1c[nH]c2ccccc12)NP(=O)(OC[C@H]1O[C@@H](N2C(=O)NC(=O)C(C)(Br)C2OC)C[C@@H]1N=[N+]=[N-])Oc1ccccc1			EC50	PBMC	IIIB	p24	0.14 µM
CC(=O)O[C@H]1C[C@H](n2cc(C)c(=O)[nH]c2=O)O[C@@H]1COP(=O)(OCC(Cl)(Cl)Cl)OCC(Cl)(Cl)Cl			EC50	MT-2	RF	p24 / ELISA	30 µM
C=CCc1cc2c(cc1OCC=C(C)C)OCO2			EC50	C8166	IIIB	syncytia	49.9 µM
CCCOc1ccc(Cc2cc(C3CCN(C[C@H]4CN([C@@H](C(=O)O)[C@H](C)CC)C[C@@H]4c4cccc(F)c4)CC3)n(CC)n2)cc1			EC50	HeLa	BaL	β-galactosidase	<0.0012 µM
O=C(O)P(=O)(O)O			EC50	MT-4	IIIB	p24	9.07 µM
CCCc1cc(=O)oc2c3c(c4c(c12)OC(C)(C)C=C4)O[C@@H](C)[C@H](C)[C@@H]3N			EC50	CEM + CEM-SS	RF		0.6 µM
Cc1cc(Br)cc(S(=O)(=O)c2cccc(N)c2C#N)c1	RT-K103N Y181C		EC50	HeLa + HELA CD4+		β-galactosidase	>50 µM
Cc1cn([C@H]2C[C@H](N=[N+]=[N-])[C@@H](CO)O2)c(=O)[nH]c1=O	RT-K103N		EC50	CEM + CEM-SS	NL4-3	cytopathic effect / XTT	0.004 µM
CC1=CCCC2C1(C)CCC(C)[C@@]2(C)CC1=CC(=O)C(N[C@@H]2C(O)O[C@@H](CO)C(O)C2O)=CC1=O			EC90	C8166	IIIB	syncytia	>7.1 µM
CC(C)c1cc(=O)oc2c3c(c4c(c12)OC(C)(C)C=C4)OC(C)C(C)C3=O			EC50	CEM + CEM-SS	SKI		0.4 µM
Cc1cn([C@H]2C[C@H](N=[N+]=[N-])[C@@H](CO)O2)c(=O)[nH]c1=O			EC50	PBMC	LAI	RT activity	0.003 µM
Cc1cccc(C)c1OCC(=O)N[C@@H](Cc1ccccc1)[C@@H](O)C[C@H](Cc1ccccc1)NC(=O)[C@H](C(C)C)N1CCCNC1=O		multidrug-resistant	EC50	PBMC		p24	>1 µM
CC(C)c1cc(=O)oc2c3c(c4c(c12)OC(C)(C)C=C4)C[C@H](C)[C@@H](C)[C@@H]3O			EC50	CEM + CEM-SS	RF		0.18 µM
C=C(C)[C@@H]1CCC2C3(CC[C@]4(C)C(C(C)CC/C=C(/C)C(=O)OC)CC[C@@]24C)CC13CCC(=O)O			EC50	C8166	IIIB	syncytia	5.1 µM
COC[C@@H](c1ccc(C(F)(F)F)cc1)N1CCN(C2(C)CCN(C(=O)c3c(C)ncnc3C)CC2)C[C@@H]1C			EC50	MT-4	NL4-3	MTT	>5 µM
Cc1cc(/C=C/C#N)cc(C)c1Oc1nc(Nc2ccc(N3CCCC(NS(N)(=O)=O)C3)cc2)nc2sccc12	F227L V106A		EC50	MT-4	IIIB	MTT	3.369 µM
CC[C@H](C)[C@H](C(=O)O)N1C[C@H](CN2CCC(c3cc(Cc4cccc(C#N)c4)nn3CC)CC2)[C@@H](c2cccc(F)c2)C1			EC90	HeLa	BaL	β-galactosidase	<0.00014 µM
C/C=C/c1ccc(OCC=C(C)C)c(OC)c1			EC50	C8166	IIIB	syncytia	41 µM
CCc1c(Sc2ccccn2)n(COCc2ccccc2)c(=O)[nH]c1=O	RT-Y181C		EC50	CEM + CEM-SS	NL4-3	cytopathic effect / XTT	1.25 µM
Cc1ccnc2c1NC(=O)c1cccnc1N2C1CC1			EC50	MAGI		β-galactosidase	<5 µg/mL
Cc1cccc2c1OP(=O)(OC[C@H]1C[C@H](n3cc(C)c(=O)[nH]c3=O)C[C@@H]1O)OC2			EC50	CEM + CEM/0			25 µM
Cc1cc(Cl)cc(S(=O)(=O)c2cccc(N)c2C#N)c1	RT-K103N V108I		EC50	HeLa + HELA CD4+		β-galactosidase	33 µM
CCNC1=CC(=O)C(C[C@]2(C)C(C)CCC3(C)C(C)=CCCC32)=CC1=O			EC90	C8166	IIIB	syncytia	>18.6 µM
CCn1nc(Cc2ccc(OC)cc2)cc1C1CCN(C[C@H]2CN([C@@H](C(=O)O)C(C)(C)C)C[C@@H]2c2cccc(F)c2)CC1			EC90	HeLa	BaL	β-galactosidase	<0.00014 µM
COC(=O)[C@H](Cc1c[nH]c2ccccc12)NP(=O)(OC[C@H]1O[C@@H](N2C(=O)NC(=O)C(C)(Br)C2OC)C[C@@H]1N=[N+]=[N-])Oc1ccc([N+](=O)[O-])cc1			EC50	PBMC	IIIB	p24	0.04 µM

5 of the rows above, restated:

smiles	mutations	setting	endpoint	cells	strain	read by	result
Cc1cc(Cl)cc(S(=O)(=O)c2cccc(N)c2C#N)c1	RT-K103N V108I		EC50	HeLa + HELA CD4+		β-galactosidase	33 µM
COC(=O)[C@H](Cc1c[nH]c2ccccc12)NP(=O)(OC[C@H]1O[C@@H](N2C(=O)NC(=O)C(C)(Br)C2OC)C[C@@H]1N=[N+]=[N-])Oc1ccc([N+](=O)[O-])cc1			EC50	PBMC	IIIB	p24	0.04 µM
CCO[C@H]1C[C@H](n2cc(C)c(=O)[nH]c2=O)O[C@@H]1CO			EC50	C8166	RF	p24 / ELISA	100 µM
CC[C@H](C)[C@H](C(=O)O)N1C[C@H](CN2CCC(c3cc(Cc4ccc(OC)c(OC)c4)nn3CC)CC2)[C@@H](c2cccc(F)c2)C1			EC50	PBMC	BaL	p24	<0.0055 µM
Cc1cn([C@H]2C[C@H](N=[N+]=[N-])[C@@H](CO)O2)c(=O)[nH]c1=O			EC50	MT-2	RF	p24 / ELISA	0.04 µM

ECn: concentration that inhibits the pathogen or its effect by n%. Lines come from different laboratories, so protocols vary.